PubChem BioAssay AID1259414, Drosophila RNAi Screening Center, 2018
The deposit covers about 24,000 reagents; this is an unselected part of those with a known target gene and a result. Of all reagents, about 1,210 (5%) are marked active. 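Inactive calls also include excluded dsRNAs with several or no targets, genes unexpressed in JW18, and well A1, regardless of score.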 No sequences are given here.

- Purpose: 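Fly genes that alter Wolbachia amount inside host cells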 (primary screen)
- System: Drosophila JW18 cells infected with Wolbachia
- Knock-down reagent: long dsRNA against Drosophila genes, 0.25 µg dsRNA per well of a 384-well plate
- Time to read-out: 5 days
- Conditions: cells persistently infected with Wolbachia before knock-down; no added drug
- Detection: 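Imaged fluorescence in situ signal for Wolbachia 23S rRNA per DAPI-counted host cell, given as a robust z-score within each plate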
- Direction: Wolbachia per cell robust z: higher = more Wolbachia per host cell than the plate typical
- Hit rule: 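Hit when robust z is 1.5 or more, or -1.5 or less, in at least two of three replicates; excludes dsRNAs with several or no targets, genes not expressed in JW18 and well A1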

| gene knocked down | DRSC id | Wolbachia per cell robust z, rep 1 | Wolbachia per cell robust z, rep 2 | Wolbachia per cell robust z, rep 3 | Call |
| --- | --- | --- | --- | --- | --- |
| bou | DRSC17924 | 0.632 | -4.98 | 0.423 | inactive |
| Fst | DRSC16491 | -0.848 | 0.256 | -3.11 | inactive |
| Fst | DRSC24483 | 0.796 | 0.872 | 0.501 | inactive |
| CG1116 | DRSC12166 | 1.26 | -0.38 | 2.36 | inactive |
| CG32986 | DRSC02509 | 0.701 | 1.26 | 0.902 | inactive |
| Cpn | DRSC16613 | 0.0641 | -4.28 | 1.41 | inactive |
| Cpn | DRSC23835 | 0.162 | 0.559 | -0.544 | inactive |
| Su(fu) | DRSC16871 | -0.38 | -0.526 | -0.844 | inactive |
| Acbp6 | DRSC10217 | 0.027 | -3.3 | 1.77 | inactive |
| CG17637 | DRSC11740 | -4.03 | -0.168 | -0.494 | inactive |
| TfIIA-S | DRSC16883 | -0.042 | -2.57 | 0.381 | inactive |
| slmb | DRSC17056 | 6.56 | 4.68 | 5.5 | inactive |
| slmb | DRSC40762 | 1.03 | 0.527 | -0.097 | inactive |
| CG18428 | DRSC15326 | -4.88 | -1.33 | 0.0707 | inactive |
| CG18428 | DRSC29185 | 0.576 | 0.045 | -0.119 | inactive |
| CG9806 | DRSC18444 | -3.43 | 0.712 | 1.62 | inactive |
| CG9806 | DRSC27417 | 1.03 | 0.403 | -0.184 | inactive |
| CG10000 | DRSC14170 | -4.19 | 0.658 | -4.96 | inactive |
| CG10000 | DRSC29791 | -7.32 | 0.269 | -3.49 | inactive |
| spict | DRSC02157 | -1.79 | -11.2 | -0.47 | active |
| spict | DRSC28072 | -0.306 | 0.897 | 0.0444 | inactive |
| spict | DRSC39020 | -0.0338 | -3.23 | -1.42 | inactive |
| CG7878 | DRSC16330 | 0.939 | 1.13 | 0.32 | inactive |
| CG7878 | DRSC23990 | 0.374 | -0.452 | 1.39 | inactive |
| CG12708 | DRSC19490 | 0.321 | -1.36 | -1.34 | inactive |
| spartin | DRSC12187 | 0.612 | 0.845 | -0.629 | inactive |
| spartin | DRSC27182 | -2.7 | -0.276 | -0.578 | inactive |
| CG10116 | DRSC09700 | 0.108 | -1.47 | 0.446 | inactive |

Reformatted: results already given
gene knocked down	DRSC id	Wolbachia per cell robust z, rep 1	Wolbachia per cell robust z, rep 2	Wolbachia per cell robust z, rep 3	Call
CG7878	DRSC16330	0.939	1.13	0.32	inactive
CG7878	DRSC23990	0.374	-0.452	1.39	inactive
CG12708	DRSC19490	0.321	-1.36	-1.34	inactive
